Test results: patent US10077287B2 (priority 2014, dated 2018)

Assay: general procedure: solution-phase peptide synthesis; HATU/DIEA

Substance | step yield (late stage modification step) [%] | further results
(S)-5-(4-nitrophenyl)-4-(2-((5R,7R,10S)-10-((S)-sec-butyl)-7-isopropyl-12-((R)-1-methylpiperidin-2-yl)-3,9,12-trioxo-8-propyl-4-oxa-2,8,11-triazadodecan-5-yl)thiazole-4-carboxamido)-2,2-dimethylpentanoic acid |  | step yield (coupling step): 56%
methyl 1-((S)-3-(4-aminophenyl)-2-(2-((5R,7R,10S)-10-((S)-sec-butyl)-7-isopropyl-12-((R)-1-methylpiperidin-2-yl)-3,9,12-trioxo-8-propyl-4-oxa-2,8,11-triazadodecan-5-yl)thiazole-4-carboxamido)propyl)cyclopropanecarboxylate | 59 | 
(S)-5-(4-aminophenyl)-4-(2-((5R,7R,10S)-10-((S)-sec-butyl)-7-isopropyl-12-((R)-1-methylpiperidin-2-yl)-3,9,12-trioxo-8-propyl-4-oxa-2,8,11-triazadodecan-5-yl)thiazole-4-carboxamido)-2,2-dimethylpentanoic acid | 37 | 
1-((S)-3-(4-aminophenyl)-2-(2-((5R,7R,10S)-10-((S)-sec-butyl)-7-isopropyl-12-((R)-1-methylpiperidin-2-yl)-3,9,12-trioxo-8-propyl-4-oxa-2,8,11-triazadodecan-5-yl)thiazole-4-carboxamido)propyl)cyclopropanecarboxylic acid | 47 | 
(S)-4-(2-((3R,6S,9R,11R)-6-((S)-sec-butyl)-3,9-diisopropyl-4,7,13-trioxo-8-propyl-12-oxa-2,5,8-triazatetradecan-11-yl)thiazole-4-carboxamido)-2,2-dimethyl-5-phenylpentanoic acid |  | step yield (late stage modification step, TFA salt): 62%
